Anti-infective test results gathered from many reports (values: NIAID ChemDB through PubChem).

Common to all: tests in culture; species: Vaccinia virus; read-out: EC50

An empty or dashed field is not shown. Rows are shuffled and stem from different studies. a–b is a range or a potency band. ECn is the concentration giving n% inhibition of infection, replication or growth.

smiles,strain,cells,result
O=c1ccn([C@@H]2O[C@@H](CO)[C@H](O)[C@H]2O)c(=O)[nH]1,-,VERO B,>1000 µM
CCc1cn([C@H]2C[C@H](O)[C@@H](CO)O2)c(=O)[nH]c1=O,-,PRK,1 µg/mL
Nc1nccc2c1ncn2[C@@H]1C[C@H](CO)[C@@H](O)[C@H]1O,Copenhagen strain wild type,VERO 76,20 µM
Nc1ccn(C[C@@H](CO)OCP(=O)(O)O)c(=O)n1,-,BSC,22 µM
C[C@H](O)[C@@H]1C[C@H](Cn2cnc3c(N)ncnc32)C1(C)C,-,E6SM,>300 µg/mL
Nc1nccc2c1ncn2[C@@H]1C[C@H](CO)[C@@H](O)[C@H]1O,-,PRK,0.8 µg/mL
CC(C)[Si]1(C(C)C)OC[C@H]2O[C@@H](n3cnc4cc(Cl)c(Cl)cc43)[C@@H](O)[C@H]2O[Si](C(C)C)(C(C)C)O1,-,E6SM,>100 µg/mL
Nc1nc2c(ncn2C[C@H]2CC[C@@H](CO)C2)c(=O)[nH]1,-,E6SM,>400 µg/mL
C[C@H](Cn1cnc2c(N)ncnc21)OCP(=O)(O)O,-,-,>350 µM
CC1(C)[C@H](CO)C[C@@H]1Cn1cnc2c(N)nc(N)nc21,-,E6SM,400 µg/mL
Nc1nccc2c1ncn2[C@@H]1C[C@H](CO)[C@@H](O)[C@H]1O,-,PRK,2 µg/mL
Nc1ncnc2c1ncn2C[C@@H](CO)OCP(=O)(O)O,WR,HFF,7.6 µM
Nc1nc(Cl)c2ncn(C[C@H]3CC[C@@H](CO)C3)c2n1,-,E6SM,>1 µg/mL
C[C@H](O)[C@]1(C)C[C@H](Cn2nnc3c(N)ncnc32)C1(C)C,-,E6SM,70 µg/mL
Nc1nc2c(ncn2[C@@H]2O[C@@H](CO)[C@H](O)[C@H]2O)c(=O)[nH]1,-,VERO B,>1000 µM
NC(=O)c1csc([C@@H]2O[C@H](CO)[C@@H](O)[C@H]2O)n1,Elstree,VERO,45 µg/mL
NC(=O)c1csc([C@@H]2O[C@H](CO)[C@@H](O)[C@H]2O)n1,-,VERO,45 µg/mL
Nc1nccc2c1ncn2[C@@H]1O[C@H](CO)[C@@H](O)[C@H]1O,-,PRK,0.3 µg/mL
C[C@H](NP1(=O)CO[C@@H](Cn2ccc(N)nc2=O)CO1)C(=O)OCCc1ccccc1,NYC,HFF,16 µM
Cn1cc(NC(=O)c2cc(NC(=O)c3cc(NC=O)cn3C)cn2C)cc1C(=O)NCCC(=N)N,-,BSC-40,<50 µM
Nc1cc(OCCOCP(=O)(O)O)nc(N)n1,-,-,570 µM
NC(=O)c1ncn([C@@H]2O[C@H](CO)[C@@H](O)[C@H]2O)c1C#CCO,-,PRK,1 µg/mL
Cc1cn([C@H]2C[C@@H](O)[C@H](CO)O2)c(=O)[nH]c1=O,-,VERO B,>1000 µM
O=c1[nH]cnc2c1ncn2C[C@@H](CO)OCP(=O)(O)O,-,Primary rabbit kidney cells,>400 µg/mL
C=Cc1cn([C@H]2C[C@H](O)[C@@H](CO)O2)c(=O)[nH]c1=O,-,PRK,0.4 µg/mL
Nc1ncnc2c1c(Br)cn2[C@@H]1O[C@H](CO)[C@@H](O)[C@H]1O,-,PRK/E6SM,>0.1 µg/mL
CCOC(=O)CC1OP(=O)(OC[C@H]2O[C@@H](n3cc(/C=C/Br)c(=O)[nH]c3=O)C[C@@H]2O)Oc2cccc(Cl)c21,-,VERO 76,>99 µg/mL
Nc1nc(NCC(F)(F)F)c2ncn(CCOCP(=O)(O)O)c2n1,WR,HFF,38 µM
NC(=O)c1ncn([C@@H]2O[C@H](CO)[C@@H](O)[C@H]2O)n1,-,-,<50 µg/mL
Nc1ccn(C[C@@H](CO)OCP(=O)(O)O)c(=O)n1,NYC,HFF,36 µM
Nc1ncnc2c1nnn2C[C@@H](CO)OCP(=O)(O)O,-,E6SM,0.7–2 µg/mL
COc1c(C)c2c(c(O)c1C/C=C(\C)CCC(=O)O)C(=O)OC2,Copenhagen strain wild type,VERO 76,0.4 µM
Nc1nccc2c1ncn2[C@@H]1C[C@H](CO)[C@@H](O)[C@H]1O,-,PRK,0.5 µg/mL
COc1c(C)c2c(c(O)c1C/C=C(\C)CCC(=O)O)C(=O)OC2,-,VERO 76,2.1 µM
Nc1nc2c(ncn2[C@H]2C[C@@H](O)[C@H](CO)O2)c(=O)[nH]1,-,VERO B,>1000 µM
Nc1nc2c(nnn2C[C@H]2CC[C@@H](CO)C2)c(=O)[nH]1,-,E6SM,>200 µg/mL
Nc1nc(N)c2ncn(CCOCP(=O)(O)O)c2n1,-,Primary rabbit kidney cells,20 µg/mL
OC[C@H]1O[C@@H](n2cnc3cc(Cl)c(Cl)cc32)[C@H](O)[C@@H]1O,-,E6SM,>10 µg/mL
Nc1ccn(C[C@H]2COP(=O)(O)CO2)c(=O)n1,Copenhagen strain wild type,VERO 76,21 µM
Nc1ncnc2c1ccn2[C@@H]1O[C@H](CO)[C@H](O)[C@H]1O,-,PRK,0.3 µg/mL
Nc1ccn(C[C@@H](CO)OCP(=O)(O)O)c(=O)n1,-,VERO 76,37 µM
CCCCOC(=O)C(C)NP(=O)(COCCn1cnc2c(NC3CC3)nc(N)nc21)NC(C)C(=O)OCCCC,NYC,HFF,0.14 µM
Nc1nc(N)c2ncn(CC(CO)OCP(=O)(O)O)c2n1,-,Primary rabbit kidney cells,2 µg/mL
NC(=O)c1ncn([C@@H]2O[C@H](CO)[C@@H](O)[C@H]2O)c1C#Cc1ccccc1,-,PRK,300 µg/mL
OC[C@H]1O[C@@H](n2cnc3cc(Cl)c(Cl)cc32)[C@H](O)[C@H]1O,-,E6SM,>4 µg/mL
CCCC#Cc1c(C(N)=O)ncn1[C@@H]1O[C@H](CO)[C@@H](O)[C@H]1O,-,PRK,150 µg/mL
Nc1nc(N)c2nnn(C[C@H]3CC[C@@H](CO)C3)c2n1,-,E6SM,>400 µg/mL
OC[C@H]1O[C@@H](n2cnc3cc(Cl)c(Cl)cc32)[C@@H](O)[C@H]1O,-,E6SM,>40 µg/mL
Nc1ncnc2c1ncn2C[C@@H](CO)OCP(=O)(O)O,-,-,2.3 µM
Nc1ncnc2c1ncn2C[C@H](O)CO,-,PRK,20 µg/mL
Nc1nc2c(ncn2COCCOP2(=O)OCc3ccccc3O2)c(=O)[nH]1,-,VERO 76,>99 µg/mL
C=CCNc1nc(N)nc2c1ncn2CCOCP(=O)(O)O,NYC,HFF,16 µM
OC[C@H]1O[C@@H](n2cnc3cc(Cl)c(Cl)cc32)[C@@H](O)[C@@H]1O,-,E6SM,>10 µg/mL
C#Cc1c(C(N)=O)ncn1[C@@H]1O[C@H](CO)[C@@H](O)[C@H]1O,-,PRK,0.2 µg/mL
Nc1ncnc2c1ncn2[C@@H]1C=C(CO)[C@@H](O)[C@H]1O,-,PRK,0.02 µg/mL
C[C@H](O)[C@@H]1C[C@H](Cn2nnc3c(=O)[nH]cnc32)C1(C)C,-,E6SM,>100 µg/mL

A second listing of 6 rows from above:

smiles,strain,cells,result
Nc1ncnc2c1ncn2[C@@H]1C=C(CO)[C@@H](O)[C@H]1O,-,PRK,0.02 µg/mL
Nc1ccn(C[C@@H](CO)OCP(=O)(O)O)c(=O)n1,-,VERO 76,37 µM
CC1(C)[C@H](CO)C[C@@H]1Cn1cnc2c(N)nc(N)nc21,-,E6SM,400 µg/mL
Nc1nc(N)c2ncn(CCOCP(=O)(O)O)c2n1,-,Primary rabbit kidney cells,20 µg/mL
Nc1ncnc2c1ncn2C[C@H](O)CO,-,PRK,20 µg/mL
Nc1ccn(C[C@@H](CO)OCP(=O)(O)O)c(=O)n1,-,BSC,22 µM